Pooled drug test results. Numbers come from NIAID ChemDB, via PubChem.

Shared fields: growth or infection tests; organism: Mycobacterium abscessus

Rows are shuffled and stem from different studies. ECn: concentration that inhibits the pathogen or its effect by n%. A number after MIC or MFC names an inhibition level or a share of isolates. Blank or dashed fields: not listed here.

| SMILES | endpoint | read by | strain or isolate | value |
|---|---|---|---|---|
| CCNC(=O)c1c(NC(=O)c2c(F)c(F)c(F)c(F)c2F)sc2c1CCN(CC)C2 | EC50 | resazurin / turbidity | bolletii 103 | 120 µM |
| CC[C@H]1OC(=O)[C@H](C)[C@@H](O[C@H]2C[C@@](C)(OC)[C@@H](O)[C@H](C)O2)[C@H](C)[C@@H](O[C@@H]2O[C@H](C)C[C@H](N(C)C)[C@H]2O)[C@](C)(OC)C[C@@H](C)C(=O)[C@H](C)[C@@H](O)[C@]1(C)O | MIC | broth dilution | CIP 104536 | 4 µg/mL |
| CC[C@H]1OC(=O)[C@H](C)[C@@H](O[C@H]2C[C@@](C)(OC)[C@@H](O)[C@H](C)O2)[C@H](C)[C@@H](O[C@@H]2O[C@H](C)C[C@H](N(C)C)[C@H]2O)[C@](C)(O)C[C@@H](C)CN(C)[C@H](C)[C@@H](O)[C@]1(C)O | MIC100 | broth dilution / visual reading | Clinical isolate MR313367D | 1 µg/mL |
| CCCCCCCCCCCCCCCOC(=O)NC(CCC(=O)O)(CCC(=O)O)CCC(=O)O | MIC | - | AAy-P-1 | 144 µg/mL |
| C[C@@H](O)[C@H]1C(=O)N2C(C(=O)O)=C(S[C@@H]3CCCN3C3CCOCC3)S[C@H]12 | MIC | visual reading | L948 | 4 µg/mL |
| NC(=O)c1c(NC(=O)c2c(F)c(F)c(F)c(F)c2F)sc2c1CCOC2 | MIC | turbidity | - | 95 µM |
| CCCCCCCCCCCCCCCCCC(=O)NC(CCC(=O)O)(CCC(=O)O)CCC(=O)O | MIC | - | AAy-P-1 | 144 µg/mL |
| CC(C)N=c1cc2n(-c3ccc(Cl)cc3)c3ccccc3nc-2cc1Nc1ccc(Cl)cc1 | MIC50 | broth dilution | Clinical isolate | ≤0.5 µg/mL |
| CCCCCCCCCCCCCCCCCCCCCCC(=O)NC(C)(CCC(=O)O)CCC(=O)O | MIC | - | AAy-P-1 | 72 µg/mL |
| CCOC(=O)c1c(NC(=O)c2c(F)c(F)c(F)c(F)c2F)sc2c1CCNC2 | EC50 | turbidity | - | 1.1 µM |
| CO[C@H]1/C=C/O[C@@]2(C)Oc3c(C)c(O)c4c(O)c(cc(O)c4c3C2=O)NC(=O)/C(C)=C\C=C\[C@H](C)[C@H](O)[C@@H](C)[C@@H](O)[C@@H](C)[C@H](OC(C)=O)[C@@H]1C | MIC | - | AAy-P-1 | 25 µg/mL |
| CCN1CCc2c(sc(NC(=O)c3c(F)c(F)c(F)c(F)c3F)c2C(=O)NC)C1 | EC90 | resazurin / turbidity | bolletii 103 | >100 µM |
| CCCCCCCCCCCCCCCCC(=O)NC(C)(CCC(=O)O)CCC(=O)O | MIC | - | AAy-P-1 | 36 µg/mL |
| CCN1CCC[C@H]1SC1=C(C(=O)O)N2C(=O)[C@H]([C@@H](C)O)[C@H]2S1 | MIC | visual reading | L948 | 4 µg/mL |
| CCOC(=O)c1c(NC(=O)c2c(F)c(F)c(F)c(F)c2F)sc2c1CCNC2=O | MIC | resazurin / turbidity | bolletii 103 | >200 µM |